# Share of PSTVd loop 15 variants by leaf site

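A pool of all variants was put on leaves of three Nicotiana benthamiana plants. Progeny were sequenced from the inoculated region (day 5), the margin of the inoculated leaf (day 10) and systemic leaves (day 12).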

The pool varies loop 15 of the PSTVd intermediate strain in the pattern GGAAACCGNNNNNNC; wild type is GGAAACCGCUACUAC (upper and lower strand joined, each 5' to 3', the first 7 letters being the upper strand, closing pairs included).

Values are reads per thousand in the sample; higher means more abundant, 0 means not found. Each site shows the three plants. "Pool" is the share in the plasmid pool used as inoculum, on the same scale. The inoculated region was read from the minus strand, the other sites from the plus strand. Wild type was 33.9 per thousand in the pool and the most common sequence in every sample (inoculated region 202, 200, 159; leaf margin 724, 746, 710; systemic leaves 856, 883, 880).

{"sequence": "GGAAACCGCACUCUC", "pool": "0.240", "inoculated region": "0.180 / 0.305 / 0.114", "leaf margin": "0 / 0 / 0.0200", "systemic leaves": "0.0161 / 0 / 0"}
{"sequence": "GGAAACCGCACUGAC", "pool": "0.176", "inoculated region": "0.197 / 0.0964 / 0.0952", "leaf margin": "0 / 0 / 0", "systemic leaves": "0 / 0 / 0"}
{"sequence": "GGAAACCGCACUGCC", "pool": "0.160", "inoculated region": "0.0164 / 0.129 / 0.0952", "leaf margin": "0 / 0.0223 / 0", "systemic leaves": "0 / 0 / 0"}
{"sequence": "GGAAACCGCACUGGC", "pool": "0.256", "inoculated region": "0.147 / 0.145 / 0.114", "leaf margin": "0 / 0 / 0.0200", "systemic leaves": "0 / 0 / 0"}
{"sequence": "GGAAACCGCACUGUC", "pool": "0.128", "inoculated region": "0.262 / 0.177 / 0.133", "leaf margin": "0 / 0.0223 / 0.0401", "systemic leaves": "0 / 0 / 0"}
{"sequence": "GGAAACCGCACUUAC", "pool": "0.224", "inoculated region": "0.311 / 0.289 / 0.381", "leaf margin": "0.0970 / 0.0445 / 0.180", "systemic leaves": "0.0644 / 0 / 0"}
{"sequence": "GGAAACCGCACUUCC", "pool": "0.304", "inoculated region": "0.0491 / 0.0803 / 0.114", "leaf margin": "0 / 0 / 0.0200", "systemic leaves": "0 / 0 / 0"}
{"sequence": "GGAAACCGCACUUGC", "pool": "0.272", "inoculated region": "0.0491 / 0.0482 / 0.133", "leaf margin": "0.0162 / 0.0445 / 0.0200", "systemic leaves": "0 / 0 / 0"}
{"sequence": "GGAAACCGCACUUUC", "pool": "0.176", "inoculated region": "0.131 / 0.0964 / 0.0952", "leaf margin": "0.0162 / 0.0223 / 0", "systemic leaves": "0 / 0 / 0"}
{"sequence": "GGAAACCGCAGAAAC", "pool": "0.208", "inoculated region": "0.0983 / 0.129 / 0.0952", "leaf margin": "0 / 0 / 0", "systemic leaves": "0 / 0 / 0"}
{"sequence": "GGAAACCGCAGAACC", "pool": "0.368", "inoculated region": "0.0328 / 0.0321 / 0.0571", "leaf margin": "0 / 0.0223 / 0", "systemic leaves": "0 / 0 / 0"}
{"sequence": "GGAAACCGCAGAAGC", "pool": "0.288", "inoculated region": "0.0983 / 0.129 / 0.0762", "leaf margin": "0.0323 / 0 / 0.0401", "systemic leaves": "0 / 0 / 0"}
{"sequence": "GGAAACCGCAGAAUC", "pool": "0.176", "inoculated region": "0.0819 / 0.129 / 0.0381", "leaf margin": "0.0162 / 0.0223 / 0.0200", "systemic leaves": "0 / 0 / 0"}
{"sequence": "GGAAACCGCAGACAC", "pool": "0.272", "inoculated region": "0.0819 / 0.0964 / 0.209", "leaf margin": "0 / 0 / 0.0401", "systemic leaves": "0 / 0 / 0"}
{"sequence": "GGAAACCGCAGACCC", "pool": "0.208", "inoculated region": "0.0655 / 0.0321 / 0.0952", "leaf margin": "0 / 0.0223 / 0.0200", "systemic leaves": "0.0161 / 0 / 0"}
{"sequence": "GGAAACCGCAGACGC", "pool": "0.176", "inoculated region": "0.0983 / 0.0803 / 0.0952", "leaf margin": "0.0162 / 0 / 0", "systemic leaves": "0 / 0 / 0"}
{"sequence": "GGAAACCGCAGACUC", "pool": "0.224", "inoculated region": "0.180 / 0.129 / 0.209", "leaf margin": "0 / 0 / 0.0200", "systemic leaves": "0 / 0 / 0"}
{"sequence": "GGAAACCGCAGAGAC", "pool": "0.208", "inoculated region": "0.0819 / 0.0482 / 0.152", "leaf margin": "0 / 0 / 0.0601", "systemic leaves": "0 / 0 / 0"}
{"sequence": "GGAAACCGCAGAGCC", "pool": "0.224", "inoculated region": "0.0655 / 0.112 / 0.0952", "leaf margin": "0 / 0 / 0", "systemic leaves": "0 / 0 / 0"}
{"sequence": "GGAAACCGCAGAGGC", "pool": "0.224", "inoculated region": "0.131 / 0.0803 / 0.171", "leaf margin": "0 / 0 / 0", "systemic leaves": "0.0161 / 0 / 0"}
{"sequence": "GGAAACCGCAGAGUC", "pool": "0.160", "inoculated region": "0.147 / 0.177 / 0.343", "leaf margin": "0 / 0 / 0", "systemic leaves": "0.0161 / 0 / 0"}
{"sequence": "GGAAACCGCAGAUAC", "pool": "0.192", "inoculated region": "0.131 / 0.305 / 0.324", "leaf margin": "0.0808 / 0.111 / 0.120", "systemic leaves": "0.0161 / 0.106 / 0.0912"}
{"sequence": "GGAAACCGCAGAUCC", "pool": "0.256", "inoculated region": "0.0983 / 0.0803 / 0.171", "leaf margin": "0.0162 / 0.0223 / 0", "systemic leaves": "0 / 0 / 0"}
{"sequence": "GGAAACCGCAGAUGC", "pool": "0.240", "inoculated region": "0.164 / 0.129 / 0.190", "leaf margin": "0.0162 / 0 / 0", "systemic leaves": "0.0161 / 0.0151 / 0"}
{"sequence": "GGAAACCGCAGAUUC", "pool": "0.256", "inoculated region": "0.229 / 0.305 / 0.267", "leaf margin": "0.0485 / 0.0891 / 0.120", "systemic leaves": "0.0483 / 0 / 0.0228"}
{"sequence": "GGAAACCGCAGCAAC", "pool": "0.192", "inoculated region": "0.0328 / 0.161 / 0.0571", "leaf margin": "0 / 0.0223 / 0.0401", "systemic leaves": "0 / 0 / 0.0228"}
{"sequence": "GGAAACCGCAGCACC", "pool": "0.256", "inoculated region": "0.0491 / 0.0482 / 0.114", "leaf margin": "0 / 0.0223 / 0", "systemic leaves": "0 / 0 / 0"}
{"sequence": "GGAAACCGCAGCAGC", "pool": "0.208", "inoculated region": "0.0655 / 0.0964 / 0.114", "leaf margin": "0 / 0.0223 / 0", "systemic leaves": "0 / 0 / 0"}
{"sequence": "GGAAACCGCAGCAUC", "pool": "0.144", "inoculated region": "0.115 / 0.145 / 0.0952", "leaf margin": "0 / 0 / 0.0200", "systemic leaves": "0 / 0 / 0"}
{"sequence": "GGAAACCGCAGCCAC", "pool": "0.192", "inoculated region": "0.0983 / 0.0482 / 0.0952", "leaf margin": "0 / 0 / 0", "systemic leaves": "0 / 0 / 0"}
{"sequence": "GGAAACCGCAGCCCC", "pool": "0.336", "inoculated region": "0.0491 / 0.0643 / 0.114", "leaf margin": "0 / 0 / 0.0200", "systemic leaves": "0 / 0 / 0"}
{"sequence": "GGAAACCGCAGCCGC", "pool": "0.224", "inoculated region": "0.328 / 0.418 / 0.305", "leaf margin": "0.0162 / 0.0445 / 0.0801", "systemic leaves": "0.0322 / 0 / 0"}
{"sequence": "GGAAACCGCAGCCUC", "pool": "0.128", "inoculated region": "0.115 / 0.0964 / 0.152", "leaf margin": "0.0162 / 0.0223 / 0", "systemic leaves": "0 / 0 / 0"}
{"sequence": "GGAAACCGCAGCGAC", "pool": "0.112", "inoculated region": "0.0655 / 0.112 / 0.0571", "leaf margin": "0 / 0.0223 / 0", "systemic leaves": "0 / 0 / 0"}
{"sequence": "GGAAACCGCAGCGCC", "pool": "0.288", "inoculated region": "0.0655 / 0.129 / 0.0381", "leaf margin": "0 / 0 / 0.0200", "systemic leaves": "0 / 0 / 0"}
{"sequence": "GGAAACCGCAGCGGC", "pool": "0.224", "inoculated region": "0.0328 / 0.0803 / 0.0571", "leaf margin": "0 / 0 / 0.0601", "systemic leaves": "0.0483 / 0 / 0"}

A selection of 3 entries from above:

| sequence | pool | inoculated region | leaf margin | systemic leaves |
|---|---|---|---|---|
| GGAAACCGCAGCACC | 0.256 | 0.0491 / 0.0482 / 0.114 | 0 / 0.0223 / 0 | 0 / 0 / 0 |
| GGAAACCGCAGCCAC | 0.192 | 0.0983 / 0.0482 / 0.0952 | 0 / 0 / 0 | 0 / 0 / 0 |
| GGAAACCGCACUUAC | 0.224 | 0.311 / 0.289 / 0.381 | 0.0970 / 0.0445 / 0.180 | 0.0644 / 0 / 0 |

Sequences that differ at fixed positions probably stem from PCR or sequencing errors, and defective variants can be carried along by functional ones. With 43,870-66,106 reads a sample, very low values are single reads.

From the data files of Wu et al. 2024, doi:10.1371/journal.ppat.1012142.